# Measured values published in patent US8581605B2 (priority 2006, dated 2013).
# Chains of the proteins cited; added tags and fusions are not shown. Lines headed by an entry give the natural chain unless they say otherwise; changes in a name come on top.
# UniProt P09616: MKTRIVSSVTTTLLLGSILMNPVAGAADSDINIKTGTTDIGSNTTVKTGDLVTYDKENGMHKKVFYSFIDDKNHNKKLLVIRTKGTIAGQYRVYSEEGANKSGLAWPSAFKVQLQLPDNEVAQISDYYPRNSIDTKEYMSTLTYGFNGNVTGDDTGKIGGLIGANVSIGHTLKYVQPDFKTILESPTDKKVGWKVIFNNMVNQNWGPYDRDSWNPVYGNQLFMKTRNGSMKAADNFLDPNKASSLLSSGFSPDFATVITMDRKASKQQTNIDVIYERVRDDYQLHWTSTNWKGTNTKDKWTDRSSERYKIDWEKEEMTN
# Tests used:
# [1] = molecular target: αHL channels (Staphylococcus aureus, UniProt P09616); experiment: AC (phase-sensitive) recording of s7βCD detection by αHL channels in a spanning lipid bilayer on a GNP membrane; settings: −30 mV DC bias, 2 αHL channels
# [2] = molecular target: alpha-HL channel (Staphylococcus aureus, UniProt P09616); experiment: Electrostatic trapping of s7-βCD in the alpha-HL channel as a function of transmembrane voltage
substance,measurement,setting,value
hepta-6-sulfato-β-cyclodextrin,decrease in conductance when s7 βCD binds to the channel,[1],70-80%
same,dissociation from the protein,"[2]; voltages greater than −0.20 V, until voltage is reduced",does not dissociate
same,duration of trapping,[2]; voltages greater than −200V (so in the source),"extended periods of time (e.g., hours)"
same,residence time within the lumen of the protein,[2]; −0.04 V across the lipid bilayer membrane (trans relative to cis),1 s
same,binding events in alpha-HL channel,[2]; −40 mV,reversible stochastic
same,electrostatic trapping in alpha-HL channel,"[2]; −120 and −200 mV, DPhPC bilayer, 50 μM s7-βCD",Stable trapping
